Results of unrelated studies side by side (data: NIAID ChemDB).

Shared fields: toxicity to cultured cells; cells: MT-2; measure: CC50

Neighbouring rows are from separate reports. CCn: concentration that lowers growth or viability of the cells by n%.

Cc1ccc(S(=O)(=O)NC(=O)Cc2c(C3CC3)nn(CC(=O)N[C@@H](Cc3ccccc3)C(=O)N(C)c3ccc4c(c3)OCO4)c2C)cc1 ; read by: ATP ; value: >20 µM
Cc1ccc2c(c1)C(O)(Cc1ccc(Cl)c(Cl)c1)N1CCN=C21 ; read by: propidium iodide ; value: 37.8 µM
CCC(C(=O)N[C@@H](Cc1ccccc1)C(=O)N(C)c1ccc2c(c1)OCO2)n1nc(C)c(CCO)c1C1CC1 ; read by: ATP ; value: >20 µM
CSc1ccc(Cc2n[nH]c(=O)c3ccccc23)cc1 ; read by: propidium iodide ; value: >177 µM
COC(=O)C(CCCNC(=O)/C=C/c1cc(OC)c(OC)c(OC)c1)NC(=O)/C=C/c1cc(OC)c(OC)c(OC)c1 ; read by: neutral red ; value: >56 µM
COc1ccc(N(C)C(=O)[C@H](Cc2ccccc2)NC(=O)c2cc(C(=O)N[C@@H](Cc3ccccc3)C(=O)N(C)c3ccc(OC)cc3)cc(C(C)(C)C)c2)cc1 ; read by: XTT ; value: 33.3 µM
O=C(NCCCC[C@H](NC(=O)c1ccc(O)c(O)c1)C(=O)O)c1ccc(O)c(O)c1 ; read by: neutral red ; value: >104 µM
CN(C(=O)[C@H](Cc1cc(F)cc(F)c1)NC(=O)c1cccc(C(=O)N[C@@H](Cc2cc(F)cc(F)c2)C(=O)N(C)c2ccc3scnc3c2)c1)c1ccc2scnc2c1 ; read by: XTT ; value: 100 µM
Cc1ccc2c(=O)n(C)nc(Cc3ccccc3Cl)c2c1 ; read by: propidium iodide ; value: >167 µM
CC(=O)OCCc1c(C2CC2)nn(CC(=O)N[C@@H](Cc2ccccc2)C(=O)N(C)c2ccc3c(c2)OCO3)c1C ; read by: ATP ; value: >20 µM
COC(=O)C(CCCNC(=O)/C=C/c1ccc(O)c(O)c1)NC(=O)/C=C/c1ccc(O)c(O)c1 ; read by: neutral red ; value: >33 µM
Cc1ccc2c(=O)[nH]nc(Cc3ccccc3Cl)c2c1 ; read by: propidium iodide ; value: >175 µM
Cc1ccc(S(=O)(=O)NC(=O)Cc2c(C)nn(CC(=O)N[C@@H](Cc3ccccc3)C(=O)N(C)c3ccc4c(c3)OCO4)c2C2CC2)cc1 ; read by: ATP ; value: >20 µM
COc1ccc(N(C)C(=O)C(Cc2ccccc2)NC(=O)c2cccc(C(=O)N[C@H](Cc3ccccc3)C(=O)N(C)c3ccc(OC)cc3)c2)cc1 ; read by: XTT ; value: 3.7 µM
Cc1nn(CC(=O)N[C@@H](Cc2ccccc2)C(=O)N(C)c2ccc3c(c2)OCO3)c(C2CC2)c1CC(=O)O ; read by: ATP ; value: >20 µM
CN(C(=O)[C@H](Cc1cc(F)cc(F)c1)NC(=O)NS(=O)(=O)N[C@@H](Cc1cc(F)cc(F)c1)C(=O)N(C)c1ccc(C(F)F)nc1)c1ccc(C(F)F)nc1 ; read by: XTT ; value: 100 µM
O=C(/C=C/c1cc(O)c(O)c(O)c1)NCCCC(NC(=O)/C=C/c1cc(O)c(O)c(O)c1)C(=O)O ; read by: neutral red ; value: >37 µM
Cc1c(CCO)c(C2CC2)nn1CC(=O)N[C@@H](Cc1ccccc1)C(=O)N(C)c1ccc2nccnc2c1 ; read by: ATP ; value: >20 µM
COc1ccc(Cc2nn(-c3ccccc3)c(=O)c3ccccc23)cc1 ; read by: propidium iodide ; value: 210 µM
COC(=O)[C@H](CCCCNC(=O)/C=C/c1ccc(O)c(O)c1)NC(=O)/C=C/c1ccc(O)c(O)c1 ; read by: neutral red ; value: >15 µM
C=CCn1nc(Cc2ccc(OC)c(OC)c2)c2ccccc2c1=O ; read by: propidium iodide ; value: 70.7 µM
Cc1nc2cc(N(C)C(=O)[C@H](Cc3ccccc3)NC(=O)Cn3nc(C4CC4)c(CCO)c3C)ccc2s1 ; read by: ATP ; value: >20 µM
CN(C(=O)[C@H](Cc1cc(F)cc(F)c1)NC(=O)NS(=O)(=O)N[C@@H](Cc1cc(F)cc(F)c1)C(=O)N(C)c1cccnc1)c1cccnc1 ; read by: XTT ; value: 100 µM
COC(=O)C(CCCNC(=O)/C=C/c1cc(O)c(O)c(O)c1)NC(=O)/C=C/c1cc(O)c(O)c(O)c1 ; read by: neutral red ; value: >42 µM
CN(C(=O)[C@H](Cc1cc(F)cc(F)c1)NC(=O)N[C@@H](Cc1cc(F)cc(F)c1)C(=O)N(C)c1ccc2scnc2c1)c1ccc2scnc2c1 ; read by: XTT ; value: 100 µM
C=Cc1ccnc(CC(=O)N[C@@H](Cc2ccccc2)C(=O)N(C)c2ccc3c(c2)OCO3)c1 ; read by: ATP ; value: >20 µM

2 of the rows above, restated:

Cc1nn(CC(=O)N[C@@H](Cc2ccccc2)C(=O)N(C)c2ccc3c(c2)OCO3)c(C2CC2)c1CC(=O)O ; read by: ATP ; value: >20 µM
Cc1ccc(S(=O)(=O)NC(=O)Cc2c(C)nn(CC(=O)N[C@@H](Cc3ccccc3)C(=O)N(C)c3ccc4c(c3)OCO4)c2C2CC2)cc1 ; read by: ATP ; value: >20 µM